According to article PMC6072100, “Exploring the links between peptoid antibacterial activity and toxicity” (MedChemComm, 2017):

Key:
[1] = system: Staphylococcus epidermidis (laboratory strain from clinical isolate); assay type: cell-based; conditions: average of selectivity to HaCaT and HepG2; selectivity = toxicity/activity
Description: (§1) Escherichia coli K-12 wild-type strain (W3110/ATCC27325, F^–, λ^–, rpoS(Am), rph-1, Inv(rrnD-rrnE)), Pseudomonas aeruginosa PA01 (ATCC 15692) Staphylococcus aureus (3R7089 strain Oxford/ATCC9144) and Staphylococcus epidermidis (laboratory strain from clinical isolate) were selected for bacteriological studies as representative Gram-negative (E. coli and P. aeruginosa) and Gram-positive (S. aureus and S. epidermidis) species. Bacterial cultures were prepared by streaking bacterial strains onto LB agar plates with an inoculation loop and incubated overnight at 37 °C. A single colony was selected and placed in 5 mL of Iso-sensitest broth (Oxoid, ThermoScientific) and incubated with shaking for 16–18 h at 37 °C to provide liquid cultures for testing.
(§2) MIC values were obtained according to the protocol described by J. M. Andrews et al.[58] and were conducted in 96-well plates (Sarstedt). Bacteria were grown from overnight cultures in Iso-sensitest broth to an A650nm of 0.07 equivalent to a 0.5 MacFarland standard (240 μM BaCl2 in 0.18 M H2SO4). This culture was diluted ten-fold with Iso-sensitest broth before use. Peptoids were initially dissolved in DMSO (5 mM) and diluted further in Iso-sensitest broth to achieve a concentration range of 4–200 μM using 2-fold serial dilutions. 50 μl of inoculum and 50 μl of peptoid solution were added to each test well (final concentration range of 2–100 μM). Experiments were performed in triplicate. A positive control for bacterial growth contained only the inoculum and Iso-sensitest broth. Other controls contained the inoculum and serial dilutions of ampicillin (from 250 μg mL^–1 to 2 μg mL^–1), serial dilutions of DMSO and the inoculum to confirm no inhibitory effect on bacterial growth, and Iso-sensitest broth alone as a sterile control. […] Quantitative data was attained from absorbance values using a Biotek Synergy H4 plate reader.
(§3) Antibacterial MIC determination
as §1, with “(W3110 / ATCC27325, F-, λ-,” for “(W3110/ATCC27325, F^–, λ^–,”, “Oxford / ATCC9144)” for “Oxford/ATCC9144)”, “°C.” for “°C. A single colony was selected and placed in 5 mL of Iso-sensitest broth (Oxoid, ThermoScientific) and incubated with shaking for 16–18 h at 37 °C to provide liquid cultures for testing.”
(§4) A single colony was selected and placed in 5 mL of Iso-sensitest broth (Oxoid, ThermoScientific) and incubated with shaking for 16-18 h at 37 °C to provide liquid […]
(§5) MIC values were obtained according to the protocol described by J. M. Andrews et al.1 and were conducted in 96-well plates (Sarstedt). Bacteria were grown from overnight cultures in Iso-sensitest broth to an A650nm of 0.07 equivalent to a 0.5 MacFarland standard (240 μM BaCl2 in 0.18 M H2SO4). This culture was diluted ten-fold with Iso-sensitest broth before use. Peptoids were initially dissolved in DMSO (5 mM) and diluted further in Iso-sensitest broth to achieve a concentration range of 4 – 200 µM using 2-fold serial dilutions. 50 μl of inoculum and 50 μl of peptoid solution were added to each test well (final concentration range of 2 – 100 µM). Experiments were performed in triplicate. A positive control for bacterial growth contained only the inoculum and Iso-sensitest broth. Other controls contained the inoculum and serial dilutions of ampicillin (from 250 µg/mL to 2 µg/mL), serial dilutions of DMSO and the inoculum to confirm no inhibitory effect on bacterial growth, and Iso-sensitest broth alone as a sterile control. […]
(§6) growth after incubation at 37 °C for 16 h with shaking. Quantitative data was attained from absorbance values using a Biotek Synergy H4 plate reader.

[2] = system: Staphylococcus aureus (3R7089 strain Oxford/ATCC9144); assay type: cell-based; conditions: average of selectivity to HaCaT and HepG2; selectivity = toxicity/activity
Description: as §1, §2, §3
as §1, with “(W3110 / ATCC27325, F-, λ-,” for “(W3110/ATCC27325, F^–, λ^–,”, “Oxford / ATCC9144)” for “Oxford/ATCC9144)”, “°C.” for “°C. A single colony was selected and placed in 5 mL of Iso-sensitest broth (Oxoid, ThermoScientific) and incubated with shaking for 16–18 h at 37 °C to provide liquid cultures for testing.”
as §4, §5, §6

Row | Structure (SMILES) | Average selectivity S. epidermidis [1] | Average selectivity S. aureus [2]
1 | NCCCCNCC(=O)N(CC(=O)N(CC(=O)N(CCCCN)CC(=O)N(CC(=O)N(CC(=O)N(CCCCN)CC(=O)N(CC(=O)N(CC(=O)N(CCCCN)CC(=O)N(CC(=O)N(CC(N)=O)Cc1ccccc1)Cc1ccccc1)Cc1ccccc1)Cc1ccccc1)Cc1ccccc1)Cc1ccccc1)Cc1ccccc1)Cc1ccccc1 [Peptoid 4, (NLysNpheNphe)4] (H-[Nlys][Nphe][Nphe][Nlys][Nphe][Nphe][Nlys][Nphe][Nphe][Nlys][Nphe][Nphe]-NH2) | > 34 | > 23
2 | CCCCCN(CC(=O)N(CC(=O)N(CC(=O)N(CCCCN)CC(=O)N(CC(=O)N(CC(N)=O)[C@@H](C)c1ccccc1)[C@@H](C)c1ccccc1)[C@@H](C)c1ccccc1)[C@@H](C)c1ccccc1)C(=O)CN(C(=O)CN(C(=O)CN(CCCCN)C(=O)CN(C(=O)CN(C(=O)CNCCCCN)[C@@H](C)c1ccccc1)[C@@H](C)c1ccccc1)[C@@H](C)c1ccccc1)[C@@H](C)c1ccccc1 [Peptoid 32, (NLysNspeNspe)2(NamyNspeNspe)(NLysNspeNspe)] | 11 | 4
3 | C[C@@H](c1ccccc1)N(CC(N)=O)C(=O)CN(C(=O)CN(CCCCN)C(=O)CN(C(=O)CN(C(=O)CNCCCCN)[C@@H](C)c1ccccc1)[C@@H](C)c1ccccc1)[C@@H](C)c1ccccc1 [Peptoid 15, (NLysNspeNspe)2] (H-[Nlys][Nspe][Nspe][Nlys][Nspe][Nspe]-NH2) | > 4 | –
4 | CCCCCNCC(=O)N(CC(=O)N(CC(=O)N(CCCCC)CC(=O)N(CC(=O)N(CC(=O)N(CCCCN)CC(=O)N(CC(=O)N(CC(=O)N(CCCCN)CC(=O)N(CC(=O)N(CC(N)=O)[C@@H](C)c1ccccc1)[C@@H](C)c1ccccc1)[C@@H](C)c1ccccc1)[C@@H](C)c1ccccc1)[C@@H](C)c1ccccc1)[C@@H](C)c1ccccc1)[C@@H](C)c1ccccc1)[C@@H](C)c1ccccc1 [Peptoid 31, (NamyNspeNspe)2(NLysNspeNspe)2] | 19 | 10
5 | CCCCCNCC(=O)N(CC(=O)N(CC(=O)N(CCCCN)CC(=O)N(CC(=O)N(CC(=O)N(CCCCN)CC(=O)N(CC(=O)N(CC(=O)N(CCCCN)CC(=O)N(CC(=O)N(CC(N)=O)[C@@H](C)c1ccccc1)[C@@H](C)c1ccccc1)[C@@H](C)c1ccccc1)[C@@H](C)c1ccccc1)[C@@H](C)c1ccccc1)[C@@H](C)c1ccccc1)[C@@H](C)c1ccccc1)[C@@H](C)c1ccccc1 [Peptoid 30, (NamyNspeNspe)[(NLysNspeNspe)]3] | 7 | 7
6 | COc1ccc(CN(CC(N)=O)C(=O)CN(Cc2ccc(OC)cc2)C(=O)CN(CCCCN)C(=O)CN(Cc2ccc(OC)cc2)C(=O)CN(Cc2ccc(OC)cc2)C(=O)CN(CCCCN)C(=O)CN(Cc2ccc(OC)cc2)C(=O)CN(Cc2ccc(OC)cc2)C(=O)CN(CCCCN)C(=O)CN(Cc2ccc(OC)cc2)C(=O)CN(Cc2ccc(OC)cc2)C(=O)CNCCCCN)cc1 [Peptoid 19, (NLysNpmbNpmb)4] | – | > 24
7 | NCCCCNCC(=O)N(CC(=O)N(CC(=O)N(CCCCN)CC(=O)N(CC(=O)N(CC(=O)N(CCCCN)CC(=O)N(CC(=O)N(CC(N)=O)Cc1ccccc1)Cc1ccccc1)Cc1ccccc1)Cc1ccccc1)Cc1ccccc1)Cc1ccccc1 [Peptoid 5, (NLysNpheNphe)3] | > 17 | > 4
8 | NCCNCC(=O)N(CC(=O)N(CC(=O)N(CCN)CC(=O)N(CC(=O)N(CC(=O)N(CCN)CC(=O)N(CC(=O)N(CC(N)=O)Cc1ccccc1)Cc1ccccc1)Cc1ccccc1)Cc1ccccc1)Cc1ccccc1)Cc1ccccc1 [Peptoid 8, (NaeNpheNphe)3] (H-[Gly(N-2-aminoethyl)][Nphe][Nphe][Gly(N-2-aminoethyl)][Nphe][Nphe][Gly(N-2-aminoethyl)][Nphe][Nphe]-NH2) | – | > 8

Square brackets hold non-standard residues; d marks the D form. Peptide text beside a SMILES is read from it. Gly(N-2-aminoethyl) = NCCNCC(=O)O; Nspe = C[C@H](NCC(=O)O)c1ccccc1; Nphe = O=C(O)CNCc1ccccc1; Nlys = NCCCCNCC(=O)O
